A mixed list of measured activities; the numbers were collected in NIAID ChemDB.

Shared fields: tests in culture; agent: Cryptococcus neoformans

Blank or dashed fields: not listed here. A number after MIC or MFC names an inhibition level or a share of isolates. ECn is the concentration giving n% inhibition of infection, replication or growth. Two numbers with a dash give a range or band. Rows are shuffled and stem from different studies.

structure | read-out | method | conditions | strain | value
Nc1scc2c1c(=O)oc1ccc3ccccc3c12 | MIC | broth dilution | - | IP 90526 | 4 µg/mL
COc1ccc2[nH]c3c4ccccc4nnc3c2c1 | MIC | - | - | - | >200 µM
COc1ccc(-c2cc(=O)c3ccc4c(ccn4C)c3o2)cc1 | MIC | - | - | - | 50 µg/mL
c1ccc(-c2ccc(CNC(Cn3ccnc3)c3ccccc3)cc2)cc1 | MIC | - | - | - | 1.5 µg/mL
CCCCN(Cc1cn(Cc2cccc([N+](=O)[O-])c2)nn1)CC(O)(Cn1cncn1)c1ccc(F)cc1F | MIC80 | - | - | - | 64 µg/mL
CSc1nc2ccccc2c(=O)n1/N=C1\C(=O)N(CN2CCOCC2)c2ccccc21 | MIC | - | - | - | 4.88 µg/mL
Clc1ccc(C(COc2ccccc2Cl)Cn2ccnc2)c(Cl)c1 | MIC | - | - | - | <1 µg/mL
Cn1c([N+](=O)[O-])cnc1S(C)=O | MIC | - | - | - | >200 µg/mL
CCCCc1oc2ccccc2c1C(=O)c1cc(I)c(OCCN(CC)CC)c(I)c1 | EC50 | - | - | 271 | <7 µM
Cn1ccc2c3oc(-c4ccccc4)c(O)c(=O)c3ccc21 | MIC | - | - | - | >50 µg/mL
C[C@@H](SC1COC(/C=C/C=C/c2ccc(C#N)cc2F)OC1)[C@](O)(Cn1cncn1)c1ccc(F)cc1F | MIC90 | - | - | 25 isolates | 0.004 µg/mL
Fc1ccc(C(Cn2ccnc2)NC/C=C/c2ccccc2)cc1 | MIC | - | - | - | >50 µg/mL
COc1ccc(C(=O)CC(=O)c2ccc3c(ccn3C)c2OC)cc1 | MIC | - | - | - | 25 µg/mL
C=C1CO[C@H]2[C@@H](C)OC(OC[C@@]34C[C@H]5[C@H](C)CC[C@@H]5[C@@]5(C=O)C[C@@H]3C=C(C(C)C)[C@@]45C(=O)O)C[C@@H]12 | MIC90 | - | - | 16 strains (serotype D) | 1 µg/mL
CCCCCCCCCCCCCC(=O)O | MIC | - | - | ATCC66031 | 1920 µM
CC[C@@H]([C@H](C)O)n1ncn(-c2ccc(N3CCN(c4ccc(OC[C@@H]5CO[C@@](Cn6cncn6)(c6ccc(F)cc6F)C5)cc4)CC3)cc2)c1=O | MIC50 | - | - | 9 isolates | 0.062 µg/mL
CCCCN(Cc1cn(Cc2ccc(Cl)cc2)nn1)CC(O)(Cn1cncn1)c1ccc(F)cc1F | MIC80 | - | - | - | 2 µg/mL
CCCSc1ccc2nc(NC(=O)OC)[nH]c2c1 | MIC | - | 48 h | 93-219 | ≤0.6 µg/mL
Cc1ccc(-c2cc(-c3ccc(Cl)cc3)nc(/N=C3\C(=O)N(CN4CCOCC4)c4ccc(Cl)cc43)n2)cc1 | MIC | - | - | - | 78.12 µg/mL
CCCCN(Cc1cn(Cc2cccc(Cl)c2)nn1)CC(O)(Cn1cncn1)c1ccc(F)cc1F | MIC80 | - | - | - | 1 µg/mL
C[C@H]1[C@H](O)[C@@H](C)/C=C/C=C/C=C/C=C/C=C/C=C/C=C/[C@H](O[C@@H]2O[C@H](C)[C@@H](O)[C@H](N)[C@@H]2O)C[C@@H]2O[C@](O)(C[C@@H](O)C[C@@H](O)CC[C@H](O)[C@@H](O)C[C@@H](O)CC(=O)O[C@H]1C)C[C@H](O)[C@H]2C(=O)O | MIC | broth dilution | - | - | 1.56 µg/mL
Clc1ccc(CCC(Cn2ccnc2)Sc2c(Cl)cccc2Cl)cc1 | MIC | - | - | - | ≤1 µg/mL
c1ccc2c(c1)nnc1c3ccccc3[nH]c21 | MIC | - | - | - | 0.8 µM
CC(N1CCN(c2ccc(-n3cnnn3)cc2)C1=O)[C@](O)(Cn1cncn1)c1ccc(F)cc1F | MIC | - | - | - | 0.25 µg/mL
C=CC[C@@H]1/C=C(/C)C[C@H](C)C[C@H](OC)[C@H]2O[C@@](O)(C(=O)C(=O)C3CCCC[C@H]3C(=O)O[C@H](/C(C)=C/[C@@H]3CC[C@@H](O)[C@H](OC)C3)[C@H](C)[C@@H](O)CC1=O)[C@H](C)C[C@@H]2OC | MIC | visual reading | - | H99 | 0.01 µg/mL
CCCCCCCCOc1ccc(NC(=O)C(COC(C)(C)C)NC(=O)[C@]2(O)C[C@@H](O)C(O)[C@H](OC(=O)/C=C/c3ccc(O)c(O)c3)C2)cc1 | MIC80 | - | - | ATCC 32045 | 1 µg/mL
CCN1CCC(O)(/C=C/c2ccc(OC)cc2)C(C(=O)/C=C/c2ccc(OC)cc2)C1 | Mean MIC | - | - | 2 strains | 100 µM
CSc1nc2ccccc2c(=O)n1/N=C1\C(=O)N(CN(C)C)c2ccccc21 | MIC | - | - | - | 19.53 µg/mL
COc1cc(O)c2c(c1)C(=O)c1c(cc3c(c1O)-c1c(cc(C)c(C(=O)NC(CO)C(=O)O)c1O)[C@H](OC1OC(C)C(N(C)C)C(OC4OCC(O)C(O)C4O)C1O)[C@H]3O)C2=O | MIC | - | - | IAM 4514 | 3.1 µg/mL
CC[C@@H]([C@H](C)O)n1ncn(-c2ccc(N3CCN(c4ccc(OC[C@@H]5CO[C@@](Cn6cncn6)(c6ccc(F)cc6F)C5)cc4)CC3)cc2)c1=O | MIC | - | - | N32 | 0.125 µg/mL
Clc1ccc(C(Cn2ccnc2)NC/C=C/c2ccccc2)cc1 | MIC | - | - | - | >50 µg/mL
Cc1ccc(-c2cc(-c3ccc(Cl)cc3)nc(/N=C3\C(=O)N(CN4CCCCC4)c4ccc(Br)cc43)n2)cc1 | MIC | - | - | - | 19.53 µg/mL
CO[C@@H]1[C@@H](C)O[C@@H](OCC23CC4C(C)CCC4C4(C=O)CC2C=C(C(C)C)C43C(=O)O)[C@@H](O)C12OC(=O)[C@H](CCCCCCCC(=O)O)O2 | MIC | - | - | ATCC66031 | 100 µg/mL
CCCCN(Cc1cn(Cc2ccccc2[N+](=O)[O-])nn1)CC(O)(Cn1cncn1)c1ccc(F)cc1F | MIC80 | - | - | - | 64 µg/mL
OC(CN1CCN(c2ccc(OCc3ccncc3)cc2)CC1)(Cn1cncn1)c1ccc(F)cc1F | MIC80 | - | - | 9406204 | 0.5 µg/mL
Clc1ccc(C(Cc2cccc(Cl)c2)c2c(Cl)nc(N3CCNCC3)nc2Cl)cc1 | MIC | - | - | - | 150 µg/mL
Cc1ccc(-c2cc(-c3ccc(Cl)cc3)nc(/N=C3\C(=O)N(CN(C)C)c4ccc(Cl)cc43)n2)cc1 | MIC | - | - | - | 39.06 µg/mL
Fc1ccc(OCCC(Cn2ccnc2)c2ccc(Cl)cc2Cl)cc1 | MIC | - | - | - | <1 µg/mL
Cc1ccc2c(c1)c1nnc(N3CCN(C)CC3)nc1n2C | MIC | - | - | 10 strains | 8–16 µg/mL
Fc1ccc(C(Cn2ccnc2)NCc2cccc3ccccc23)cc1 | MIC | - | - | - | >50 µg/mL
COC(=O)C1CCc2sccc2C1=O | MIC | - | - | - | 50 µg/mL
CO[C@H]1[C@@H](OC(=O)OCc2ccccc2)[C@H](O)[C@H](OCC23C4C=C(C(C)C)C2(C(=O)O)C(C=O)(C4)[C@@H]2CC[C@@H](C)[C@H]23)O[C@@H]1C | MIC | - | - | 2867 | >62 µg/mL
CCC(C)CCCCCCC1CC(=O)NCC(=O)N[C@@H](CCCN)C(=O)N[C@@H](C(C)CC)C(=O)N1 | MIC | - | - | TIMM0354 | 1.25 µg/mL
C[C@H]1N(C(=O)c2ccc(C(F)(F)F)cc2)C[C@@H](O)O[C@@]1(Cn1cncn1)c1ccc(F)cc1F | MIC | - | - | 89-127 | 2 µg/mL
Clc1ccc(OCC(Cn2ccnc2)c2ccc(Cl)cc2Cl)c(Cl)c1 | MIC | - | - | - | <1 µg/mL
OC(Cn1cncn1)(Cn1cncn1)c1ccc(F)cc1F | EC50 | colony count | - | Var. neoformans (isolate 45645) | <1 µg/mL
O=c1cc(-c2ccccc2)oc2c1ccc1sccc12 | MIC | - | - | - | 25 µg/mL
Cc1ccc(-c2cc(-c3ccc(Cl)cc3)nc(/N=C3\C(=O)N(CN4CCCCC4)c4ccc(Cl)cc43)n2)cc1 | MIC | - | - | - | 39.06 µg/mL
CCC(C)n1ncn(-c2ccc(N3CCN(c4ccc(OC[C@H]5CO[C@](Cn6cncn6)(c6ccc(Cl)cc6Cl)O5)cc4)CC3)cc2)c1=O | MIC50 | - | - | 15 strains | 0.03 µg/mL
Clc1ccc(C(Cn2ccnc2)NCc2cccc3ccccc23)cc1 | MIC | - | - | - | >50 µg/mL
Cn1cc[nH]c1=S | MIC | - | - | - | >200 µg/mL
Clc1ccc(C(COc2ccccc2Cl)Cn2ccnc2)cc1 | MIC | - | - | - | <1 µg/mL
CSc1nc2ccccc2c(=O)n1/N=C1\C(=O)Nc2ccc(Cl)cc21 | MIC | - | - | - | 4.88 µg/mL
O=C(c1ccccc1)N1CCC(n2cc(-c3noc(=O)[nH]3)nn2)CC1 | MIC | agar | - | NCIM576 | 40 µg/mL
CCCCCCCCCCSCC(OC)C(=O)O | MIC | - | - | ATCC66031 | 0.00124 µM
Clc1ccc(C(Cn2ccnc2)NCc2ccc(-c3ccccc3)cc2)c(Cl)c1 | MIC | - | - | - | 3 µg/mL
Clc1ccc(OCCC(Cn2ccnc2)c2ccc(Cl)cc2Cl)cc1 | MIC | - | - | - | <1 µg/mL
Cc1ccc(-c2cc(-c3ccc(Cl)cc3)nc(/N=C3\C(=O)N(CN(C)C)c4ccc(Br)cc43)n2)cc1 | MIC | - | - | - | 9.76 µg/mL
CC(C)CCCCCCCCCC1CC(=O)NCC(=O)N[C@@H](CCCCN)C(=O)N[C@@H](C(C)C)C(=O)N1 | MIC | - | - | TIMM0354 | 0.63 µg/mL
CSc1ncc([N+](=O)[O-])n1C | MIC | - | - | - | >200 µg/mL
Cc1ccc(-c2cc(-c3ccc(Cl)cc3)nc(/N=C3\C(=O)N(CN4CCOCC4)c4ccccc43)n2)cc1 | MIC | - | - | - | 39.06 µg/mL
CCC(C)n1ncn(-c2ccc(N3CCN(c4ccc(OC[C@H]5CO[C@](Cn6cncn6)(c6ccc(Cl)cc6Cl)O5)cc4)CC3)cc2)c1=O | MIC50 | - | - | 37 strains | 0.25 µg/mL
CCCCN(Cc1cn(Cc2ccccc2F)nn1)CC(O)(Cn1cncn1)c1ccc(F)cc1F | MIC80 | - | - | - | 8 µg/mL
CSc1nc2ccccc2c(=O)n1/N=C1\C(=O)Nc2ccc(Br)cc21 | MIC | - | - | - | 9.76 µg/mL
Clc1ccc2[nH]c3c4ccccc4nnc3c2c1 | MIC | - | - | - | >200 µM
COc1cccc(N(C)C(=S)Oc2ccc3c(c2)CCCC3)n1 | MIC90 | - | - | 33 strains | 1.25 µg/mL
CCN1CCC(O)(/C=C/c2ccc(Cl)cc2)C(C(=O)/C=C/c2ccc(Cl)cc2)C1 | Mean MIC | - | - | 2 strains | 1.17 µM
O=C1C=CC[C@H](/C=C/c2ccccc2)O1 | MIC | broth dilution | - | - | 18 µg/mL
CN[C@H]1CC[C@@H](c2ccc(Cl)c(Cl)c2)c2ccccc21 | MIC90 | broth dilution | - | JEC21 | 2 µg/mL
Cn1ccnc1S(C)=O | MIC | - | - | - | >200 µg/mL
CC(=O)c1ccc2sccc2c1O | MIC | - | - | - | 50 µg/mL

The last 7 rows once more:

structure | read-out | method | conditions | strain | value
Clc1ccc2[nH]c3c4ccccc4nnc3c2c1 | MIC | - | - | - | >200 µM
COc1cccc(N(C)C(=S)Oc2ccc3c(c2)CCCC3)n1 | MIC90 | - | - | 33 strains | 1.25 µg/mL
CCN1CCC(O)(/C=C/c2ccc(Cl)cc2)C(C(=O)/C=C/c2ccc(Cl)cc2)C1 | Mean MIC | - | - | 2 strains | 1.17 µM
O=C1C=CC[C@H](/C=C/c2ccccc2)O1 | MIC | broth dilution | - | - | 18 µg/mL
CN[C@H]1CC[C@@H](c2ccc(Cl)c(Cl)c2)c2ccccc21 | MIC90 | broth dilution | - | JEC21 | 2 µg/mL
Cn1ccnc1S(C)=O | MIC | - | - | - | >200 µg/mL
CC(=O)c1ccc2sccc2c1O | MIC | - | - | - | 50 µg/mL